For 1 compound, Kd results are on record in patent publication US9234005B2 (priority 2011, dated 2016).

The target of this assay is T1, PTPN4-PDZ (Homo sapiens, UniProt P29074, S499G).
T1 sequence (P29074 499-604 S499G): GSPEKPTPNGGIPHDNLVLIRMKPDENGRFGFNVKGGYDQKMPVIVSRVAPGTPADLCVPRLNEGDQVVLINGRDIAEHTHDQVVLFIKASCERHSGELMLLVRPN
The assay is described as follows: biochemical.

Usually Kd stands for the equilibrium constant for the complex coming apart. A higher Kd goes with lower affinity. For the compound `CC(C)[C@H](NC(=O)[C@H](CCC(=O)O)NC(=O)[C@@H](NC(=O)[C@H](CCC(=O)O)NC(=O)[C@H](CCCNC(=N)N)NC(=O)[C@H](CCC(=O)O)NC(=O)[C@H](Cc1ccc(O)cc1)NC(=O)[C@H](Cc1c[nH]c2ccccc12)NC(=O)[C@@H](N)CO)[C@@H](C)O)C(=O)O` [SEQ ID NO: 2, SWYERETEV], the equilibrium dissociation constant (Kd) is 1090 nM.
